According to patent US6906198B1, “Antipicornaviral compounds, their preparation and use” (Agouron Pharmaceuticals, Inc., priority 1998, dated 2005):

Tests used:
[1] = tested on: HRV serotype 10; experiment: Antirhinoviral H1-HeLa cell culture assay (XTT), HRV-10; type: cell-based, human rhinovirus; conditions: therapeutic index CC50/EC50, HRV (10)
Protocol: (§1) Antirhinoviral H1-HeLa Cell Culture Assay
(§2) In this cell protection assay, the ability of compounds to protect cells against HRV infection was measured by the XTT dye reduction method, which is described in Weislow et al., J. Natl. Cancer Inst. 1989, vol. 81, 577-586.
(§3) H1-HeLa cells were infected with HRV-14 at a multiplicity of infection (m.o.i.) of 0.13 (virus particles/cell) or mock-infected with medium only. Infected or mock-infected cells were resuspended at 8×10^5 cells per mL, and incubated with appropriate concentrations of the compounds to be tested. Two days later, XTT/PMS was added to test plates and the amount of formazan produced was quantified spectrophotometrically at 450/650 nm. The EC50 value was calculated as the concentration of compound that increased the percentage of formazan production in compound-treated, virus-infected cells to 50% of that produced by compound-free, mock-infected cells. The 50% cytotoxic dose (CC50) was calculated as the concentration of compound that decreased the percentage of formazan produced in compound-treated, mock-infected cells to 50% of that produced by compound-free, mock-infected cells. The therapeutic index (TI) was calculated by dividing the CC50 value by the EC50 value.
(§4) All strains of human rhinovirus (HRV) for use in this assay were purchased from American Type Culture Collection (ATCC), except for HRV serotype-14 (produced from the infectious cDNA clone constructed by Dr. Robert Rueckert, Institute for Molecular Virology, University of Wisconsin, Madison, Wis.). HRV stocks were propagated and viral assays were performed in H1-HeLa cells (ATCC). Cells were grown in minimal essential medium with 10% fetal bovine serum, available from Life Technologies (Gaithersburg, Md.).
(§5) The compounds were tested against control compounds WIN 51711, WIN 52084, and WIN 54954 (obtained from Sterling-Winthrop Pharmaceuticals), Pirodavir (obtained from Janssen Pharmaceuticals), and Pleconaril (prepared according to the method described in Diana et al., J. Med. Chem 1995, vol. 38, 1355). Antiviral data obtained for the test compounds are shown in Tables 1 and 3, where all data are for HRV serotype-14 unless otherwise noted in parentheses.

[2] = tested on: enterovirus type 70 (EV 70); experiment: Anti-enteroviral cell culture assay (XTT), EV 70; type: cell-based; conditions: therapeutic index CC50/EC50, EV-70
Protocol: Anti-Echoviral and -Enteroviral Cell Culture Assays
Echovirus type 11 (EV 11) and enterovirus type 70 (EV 70) were purchased from ATCC (Rockville, Md.). Virus stocks were propagated and antiviral assays were performed in MRC-5 cells (ATCC). Cells were grown in minimal essential medium with 10% fetal bovine serum (Life Technologies, Gaithersburg, Md.).
The ability of compounds to protect cells against either EV 11 or EV 70 infection was measured by the XTT dye reduction method (Weislow et al., J. Natl. Cancer Inst. 1989, vol. 81, 577-586). MRC-5 cells were infected with EV 11 or EV 70 at an m.o.i. of 0.003 or 0.004, respectively, or mock-infected with medium only. Infected or uninfected cells were added at 1×10^4 cells per well and incubated with appropriate concentrations of compound. Four days later, XTT/PMS was added to test plates, and the amount of formazan produced was quantified spectrophotometrically at 450/650 nm. The EC50 was calculated as the concentration of compound that increased the formazan production in compound-treated, virus-infected cells to 50% of that produced by compound-free, uninfected cells. The 50% cytotoxic dose (CC50) was calculated as the concentration of compound that decreased formazan production in compound-treated, uninfected cells to 50% of that produced in compound-free, uninfected cells. The therapeutic index (TI) was calculated by dividing the CC50 by the EC50.
The compounds were tested against control compounds Pirodavir (obtained from Janssen Pharmaceuticals) and Pleconaril (prepared according to Diana et al., J. Med. Chem. 1995, vol. 38, 1355). Antiviral data obtained for the test compounds against strain EV 11 and EV 70 are shown below in Table 5.

[3] = tested on: HRV-14; experiment: Antirhinoviral H1-HeLa cell culture assay (XTT), HRV-14; type: cell-based, human rhinovirus; conditions: therapeutic index CC50/EC50, HRV serotype-14
Protocol: as §1, §2, §3, §4, §5

[4] = tested on: HRV serotype 16; experiment: Antirhinoviral H1-HeLa cell culture assay (XTT), HRV-16; type: cell-based, human rhinovirus; conditions: therapeutic index CC50/EC50, HRV (16)
Protocol: as §1, §2, §3, §4, §5

[5] = tested on: HRV serotype 3; experiment: Antirhinoviral H1-HeLa cell culture assay (XTT), HRV-3; type: cell-based, human rhinovirus; conditions: therapeutic index CC50/EC50, HRV (3)
Protocol: as §1, §2, §3, §4, §5

[6] = tested on: HRV serotype 12; experiment: Antirhinoviral H1-HeLa cell culture assay (XTT), HRV-12; type: cell-based, human rhinovirus; conditions: therapeutic index CC50/EC50, HRV (12)
Protocol: as §1, §2, §3, §4, §5

[7] = tested on: HRV serotype 89; experiment: Antirhinoviral H1-HeLa cell culture assay (XTT), HRV-89; type: cell-based, human rhinovirus; conditions: therapeutic index CC50/EC50, HRV (89)
Protocol: as §1, §2, §3, §4, §5

[8] = tested on: HRV serotype 17; experiment: Antirhinoviral H1-HeLa cell culture assay (XTT), HRV-17; type: cell-based, human rhinovirus; conditions: therapeutic index CC50/EC50, HRV (17)
Protocol: as §1, §2, §3, §4, §5

[9] = tested on: HRV serotype 39; experiment: Antirhinoviral H1-HeLa cell culture assay (XTT), HRV-39; type: cell-based, human rhinovirus; conditions: therapeutic index CC50/EC50, HRV (39)
Protocol: as §1, §2, §3, §4, §5

## CCOC(=O)/C=C/[C@H](C[C@@H]1CCNC1=O)NC(=O)[C@@H](CC(=O)[C@@H](NC(=O)c1cc(C)on1)C(C)C)Cc1ccc(F)cc1 [(B-2), Ethyl-3-{(5′-Methylisoxazole-3′-carbonyl)-L-ValΨ(COCH2)-L-(4-F-Phe)-L-((S)-Pyrrol-Ala)}-E-Propenoate]
[1]
  TI: >5000
[2]
  TI: >33333
[3]
  TI: >20000
[4]
  TI: >10000
[5]
  TI: >5000
[6]
  TI: >2000
[7]
  TI: >11111
[8]
  TI: >10000
[9]
  TI: >2000
